Pooled drug test results. Numbers come from NIAID ChemDB, via PubChem.

Common to all: tests in culture; agent: HIV-1

Rows are shuffled and stem from different studies. ECn is the concentration giving n% inhibition of infection, replication or growth. An empty or dashed field is not shown.

compound | measure | setting | method | strain or isolate | changes | cells | result
COC(=O)N[C@H](C(=O)N[C@@H](Cc1ccccc1)[C@@H](O)CN(Cc1ccc(-c2ccccn2)cc1)NC(=O)[C@@H](NC(=O)OC)C(C)(C)C)C(C)(C)C | EC50 |  | MTT | LAI |  | MT-2 | 0.0044 µM
Cc1ccnc2c1NC(=O)c1cccnc1N2C1CC1 | EC50 |  | cytopathic effect / XTT | 4xAZT/L100I(RT-D67N K70R T215Y K219Q L100I) | RT-D67N K70R L100I T215Y K219Q | CEM + CEM-SS | 0.03 µM
Cc1nnc(C(C)C)n1C1C[C@H]2CC[C@@H](C1)N2CC[C@H](NC(=O)C1CCC(F)(F)CC1)c1ccccc1 | EC50 |  | luciferase | SF162 |  | ACH2 + TZM-bl | 0.00261 µM
Cc1cn([C@H]2C=C[C@@H](CO)O2)c(=O)[nH]c1=O | EC50 |  | RT activity | LAI |  | MT-2 | 0.4 µM
O=c1[nH]cnc2c1ncn2[C@H]1CC[C@@H](CO)O1 | EC50 |  | cytopathic effect / MTT | IIIB |  | C8166 | 0.8 µM
COc1cc([C@@H]2c3cc(O)c(OC)cc3C[C@@H](CO)[C@@H]2CO)ccc1O | EC50 |  | MTT | IIIB |  | MT-4 | 167 µM
CC(=O)Oc1ccc(S)c(S(=O)(=O)Nc2n[nH]c(N)n2)c1 | EC50 |  | cytopathic effect / XTT | RF |  | CEM | >200 µM
Cc1cn([C@H]2C[C@H](N=[N+]=[N-])[C@@H](CO)O2)c(=O)[nH]c1=O | EC50 | clinical isolate | cytopathic effect / XTT | CLADE A |  | PBMC | 0.008 µM
Cc1cc(S(=O)(=O)Nc2nnc3c4c(C)csc4ncn23)c(S)cc1Cl | EC50 |  | cytopathic effect / XTT | RF |  | CEM | >117.2 µM
Fc1ccccc1CCNC(=S)Nc1ccc(Br)cn1 | EC50 |  | p24 | RT-Y181C A17 NNRTI-resistant |  | PBMC | 0.33 µM
COc1ccccc1CN[C@H]1C2CCN(CC2)[C@H]1C(c1ccccc1)c1ccccc1 | EC50 |  | RT activity | BaL |  | Macrophage + Monocytes/macrophages | ~1 µM
Cc1cc(S(=O)(=O)NC2=NCCCN2)c(S)cc1Cl | EC50 |  | cytopathic effect / XTT | RF |  | CEM | 16.1 µM
C#Cc1ccc(Nc2nccc(Oc3c(C)cc(-c4cn(Cc5ccc(C#N)cc5)nn4)cc3C)n2)cc1 | EC50 |  | MTT | IIIB | Y181C | MT-4 | >7.18 µM
COC(O)c1cc(O)c(O)c(O)c1 | EC50 |  | MTT | IIIB |  | MT-4 | 3.95 µM
C#Cc1ccc(Nc2nccc(Oc3c(C)cc(-c4cn(CCC(=O)OC)nn4)cc3C)n2)cc1 | EC50 |  | MTT | IIIB | K103N | MT-4 | 0.75 µM
Cc1cccc(C)c1OCC(=O)N[C@@H](Cc1ccccc1)[C@@H](O)C[C@H](Cc1ccccc1)NC(=O)[C@H](C(C)C)N1CCCNC1=O | EC90 |  | p24 | HXB2 | PR-M46I L63P A71V V82F I84V | PBMC | 0.54 µM
C#Cc1ccc(Nc2nccc(Oc3c(C)cc(-c4cn(Cc5ccc(C(N)=O)cc5)nn4)cc3C)n2)cc1 | EC50 |  | MTT | IIIB | Y181C | MT-4 | 0.56 µM
COc1ccc2nc3cc(Cl)ccc3c(NCCN3CCCC(O)C3)c2c1 | EC50 |  | MTT |  |  | MT-4 | >1.5 µM
Cc1cc(O)cc(O)c1 | EC50 |  | syncytia | IIIB |  | C8166 | 37.43 µM
O=S1(=O)NC(Cc2ccc(Cl)cc2Cl)=CC(=NC2CCN(Cc3ccc(Br)cc3)CC2)N1 | EC50 |  | MTT | IIIB |  | MT-4 | 23.28 µM
COc1ccc2nc3cc(Cl)ccc3c(N3CCC(O)CC3)c2c1 | EC50 |  | MTT |  |  | MT-4 | >6.2 µM
Cc1cn([C@H]2CC[C@@H](CO)O2)c(=O)[nH]c1=O | EC50 |  | RT activity |  |  | PBMC | 0.7 µM
Cc1cn([C@H]2C[C@H](N=[N+]=[N-])[C@@H](CO)O2)c(=O)[nH]c1=O | EC50 |  | syncytia | IIIB |  | C8166 | 0.002 µM
Cc1c(O)cccc1C(=O)N[C@@H](CSc1ccccc1)[C@H](O)CN1C[C@H]2CCCC[C@H]2C[C@H]1C(=O)NC(C)(C)C | EC50 |  | p24 | IIIB Subtype B |  | PBMC | 0.0033 µM
Cc1cn([C@@H]2C[C@@H](N=[N+]=[N-])[C@H](COP(=O)(OCc3ccc(OC(=O)C(C)(C)C)cc3)OC[C@H]3O[C@@H](n4cc(C)c(=O)[nH]c4=O)C[C@@H]3N=[N+]=[N-])O2)c(=O)[nH]c1=O | EC50 |  | cytopathic effect / MTT | 111B |  | C8166 | 0.003 µM
C#Cc1ccc(Nc2nccc(Oc3c(C)cc(-c4cn(CC(=O)Nc5ccc(Br)cc5)nn4)cc3C)n2)cc1 | EC50 |  | MTT | IIIB | E138K | MT-4 | >19.78 µM
CC#CCN1C(=O)[C@H]([C@@H](O)C2CCCCC2)NC(=O)C12CCN(Cc1c(C)nn(-c3ccccc3)c1C)CC2 | EC50 |  | p24 | BAL R5 |  | PBMC | 0.032 µM
Cc1cc(C#N)cc(C)c1Oc1nc(Nc2ccc(C#N)cc2)nc(N)c1Br | EC50 |  | MTT | RES056 | RT-K103N Y181C | MT-4 | 0.025 µM
Cc1c(C#N)cc(C(F)F)cc1Oc1c(C(F)(F)C(F)F)ncn(Cc2cc(F)c[nH]c2=O)c1=O | EC50 |  | luminescence |  |  | CD4+ T-cell | 0.0384 µM
CCCC(=O)Oc1ccc(COP(=O)(OC[C@H]2CC[C@@H](n3cnc4c(=O)[nH]cnc43)O2)OC[C@H]2O[C@@H](n3cc(C)c(=O)[nH]c3=O)C[C@@H]2N=[N+]=[N-])cc1 | EC50 |  | cytopathic effect / MTT | IIIB |  | C8166 | 0.032 µM
C=C1[C@H](CO)[C@@H](O)C[C@@H]1n1cnc2c(=O)[nH]c(N)nc21 | EC50 |  | MTT | IIIB | E138K | MT-4 | 0.008 µM
COC(=O)C(C)CNP(=O)(OC[C@@H]1CC[C@H](n2cc(C)c(=O)[nH]c2=O)O1)Oc1ccccc1 | EC50 |  | RT activity |  |  | PBMC | 2.1 µM
CCO/N=C(\c1ccc(Br)cc1)C1CCN(C2(C)CCN(C(=O)c3c(C)cc[n+]([O-])c3C)CC2)CC1 | EC90 |  | p24 | JR-FL R5 |  | PBMC | 0.056 µM
Cc1cc(S(=O)(=O)Nc2nnc3cnc4ccccc4n23)c(S)cc1Cl | EC50 |  | cytopathic effect / XTT | RF |  | CEM | 75.5 µM
Cc1ccc(-c2ccc3c(c2)C=C(C(=O)Nc2ccc(C[N+](C)(C)C4CCOCC4)cc2)CCC3)cc1 | EC50 |  | p24 | BAL R5 |  | PBMC | 0.028 µM
COc1ccc2nc3cc(Cl)ccc3c(NCCO)c2c1 | EC50 |  | MTT |  |  | MT-4 | >1.8 µM
CSc1c(C)c(SC)n2ccncc12 | EC50 |  | MTT | IIIB |  | PBMC | 18 µM
O=c1[nH]cnc2c1ncn2[C@H]1CC[C@@H](CO)O1 | EC50 |  | RT activity | IIIB |  | PBL(PHA STIM.) + PBL | 19 ± 8.3 µM
Cc1cn([C@@H]2O[C@H](CO[Si](C)(C)C(C)(C)C)C3(OS(=O)(=O)C=C3N)[C@H]2O[Si](C)(C)C(C)(C)C)c(=O)n(C)c1=O | EC50 |  | syncytia | IIIB |  | CEM | 0.03 ± 0.005 µg/mL
O=S1(=O)NC(Cc2cccc3ccccc23)=CC(=NC2CCN(Cc3c(Cl)cccc3Cl)CC2)N1 | EC50 |  | MTT | IIIB |  | MT-4 | ≥42.87 µM
Nc1nc2c(ncn2[C@H]2CC[C@@H](CO)O2)c(=O)[nH]1 | EC50 |  | syncytia | IIIB |  | CEM | 1.1 ± 0.28 µM
Cc1cc(SC2=C(O)CC(CCc3cccc(O)c3)(C3CCCC3)OC2=O)c(C(C)(C)C)cc1CO | EC95 |  | cytopathic effect / XTT |  |  | CEM | 0.6 µM
CC(=O)[C@]12CCC(C)(C)CC1C1=CCC3[C@@]4(C)CCC(=O)C(C)(C)C4[C@H](O)C[C@@]3(C)[C@]1(C)CC2 | EC50 |  | syncytia | IIIB |  | C8166 | 3.4 µM
Cc1ccnc2c1NC(=O)c1cccnc1N2C1CC1 | EC50 |  | p24 | IIIB Subtype B |  | PBMC | 0.01 µM
Nc1ncnc2c1ncn2CC(CF)OCP(=O)(O)O | EC50 |  | syncytia | IIIB |  | CEM | 3 µM
O=c1[nH]c(=O)n([C@H]2C[C@H](F)[C@@H](CO)O2)cc1Cl | EC50 |  | plaque count | HXB2 |  | CD4+HELA + HeLa | 15.4 µM
C#Cc1ccc(Nc2nccc(Oc3c(C)cc(-c4cn(CC(=O)Nc5ccc(S(C)(=O)=O)cc5)nn4)cc3C)n2)cc1 | EC50 |  | MTT | IIIB | Y181C | MT-4 | >6.36 µM
Cc1cn([C@@H]2C[C@@H](N=[N+]=[N-])[C@H](COP(=O)(O)OC[C@H]3O[C@@H](n4cc(C)c(=O)[nH]c4=O)C[C@@H]3N=[N+]=[N-])O2)c(=O)[nH]c1=O | EC50 |  | cytopathic effect / MTT | IIIB |  | C8166 | 0.016 µM
CC(C)CN(C[C@@H](O)[C@H](Cc1ccccc1)NC(=O)[C@@H](NC(=O)CNCc1cccc(F)c1)C(C)(C)C)S(=O)(=O)c1cccc(N)c1 | EC50 |  | p24 | NL4-3 |  | PBMC | <0.0065 µM
C#Cc1ccc(Nc2nccc(Oc3c(C)cc(-c4cn(Cc5ccc(S(N)(=O)=O)cc5)nn4)cc3C)n2)cc1 | EC50 |  | MTT | IIIB | E138K | MT-4 | 0.21 µM
O=Nc1c(-c2c(O)[nH]c3ccccc23)[nH]c2ccccc12 | EC50 |  | p24 | GP120-R305K P308H SCH-1 resistant |  | PBMC | <1 µM
O=S1(=O)NC(Cc2ccc(Cl)cc2Cl)=CC(=NC2CCN(Cc3ccc(F)cc3)CC2)N1 | EC50 |  | MTT | IIIB |  | MT-4 | 31.66 µM
Cc1cn([C@H]2C[C@H](N=[N+]=[N-])[C@@H](CO)O2)c(=O)[nH]c1=O | EC50 |  | cytopathic effect / XTT | NL4-3 | RT-K101E | CEM + CEM-SS | 0.004 µM
CC[C@H](C)[C@H](NC(=O)Cc1ccccn1)C(=O)N[C@@H](Cc1ccccc1)[C@@H](O)[C@H](O)[C@H](Cc1ccccc1)NC(=O)[C@@H](NC(=O)Cc1ccccn1)[C@@H](C)CC | EC90 |  |  | RF |  | MT-2 | 0.55 µg/mL
COc1ccc2nc3cc(Cl)ccc3c(NN3CCN(C)CC3)c2c1 | EC50 |  | MTT |  |  | MT-4 | >8 µM
C#Cc1ccc(Nc2nccc(Oc3c(C)cc(-c4cn(Cc5cccc([N+](=O)[O-])c5)nn4)cc3C)n2)cc1 | EC50 |  | MTT | IIIB | F227L and V106A | MT-4 | >101 µM
CN(C)c1ncnc2c1ncn2[C@@H]1O[C@H](CO[Si](C)(C)C(C)(C)C)C2(OS(=O)(=O)C=C2N)[C@H]1O[Si](C)(C)C(C)(C)C | EC50 |  | trypan blue | IIIB |  | MT-4 | 0.27 µg/mL
COC(=O)C(C)CNP(=O)(OC[C@@H]1CC[C@H](n2cc(C)c(=O)[nH]c2=O)O1)Oc1ccc(Cl)cc1 | EC50 |  | RT activity |  |  | CEM(TK-) + CEM TK- | 21.9 µM
Cc1cn([C@H]2C[C@H](N=[N+]=[N-])[C@@H](CO)O2)c(=O)[nH]c1=O | EC50 |  | luciferase | NL4-3 |  | ACH2 + TZM-bl | 0.00134 µM
Cc1cccc(C)c1OCC(=O)N[C@@H](Cc1ccccc1)[C@@H](O)C[C@H](Cc1ccccc1)NC(=O)[C@H](C(C)C)N1CCCNC1=O | EC50 |  | p24 | NL4-3 |  | MT-4 | 0.035 µM
CCCCN1C(=O)C(CC2CCCCC2)NC(=O)C12CCN(Cc1ccc3c(c1)OCCO3)CC2 | EC50 |  | p24 | BAL R5 |  | PBMC | 0.082 µM
Cc1ccc(Nc2nc(NS(=O)(=O)c3cc(C)c(Cl)cc3S)n[nH]2)cc1 | EC50 |  | cytopathic effect / XTT | RF |  | CEM | 180 µM
CC(C)=CCC/C(C)=C/CC/C(C)=C/CC/C(C)=C/Cc1cc(O)cc2c1OC(=O)C2=C(C)C | EC50 |  | syncytia | IIIB |  | C8166 | 0.75 µM
CC(=O)c1ccc(CN2CCC(N=C3C=C(Cc4ccc(Cl)cc4Cl)NS(=O)(=O)N3)CC2)cc1 | EC50 |  | MTT | IIIB |  | MT-4 | ≥36.24 µM
Cc1ccc(CCNC(=S)Nc2ccc(Br)cn2)cc1 | EC50 |  | p24 | IIIB |  | PBMC | 0.007 µM
Cc1cc(S(=O)(=O)Nc2n[nH]c(-c3ccccn3)n2)c(S)cc1Cl | EC50 |  | cytopathic effect / XTT | RF |  | CEM | >4.3 µM
Nc1ccn([C@H]2CC[C@@H](CO)O2)c(=O)n1 | EC50 |  |  | RF |  | MT-2 | 0.08 µg/mL
CCOCn1c(Cc2ccccc2)c(CC)c(=O)[nH]c1=O | EC50 |  | syncytia | IIIB |  | CEM | 0.0026 ± 0.002 µg/mL
CC(C)c1cc2c(c(O)c1O)[C@@]1(C(=O)O)CCCC(C)(C)C1CC2 | EC50 |  |  | clinical isolate 1(MOKW WT R5) |  | PBMC | 0.018 µM
CCC(Sc1cc(Cl)c(C)cc1S(=O)(=O)Nc1nc(N)nc(N(C)C)n1)C(=O)O | EC50 |  | cytopathic effect / XTT | RF |  | CEM | >200 µM
Cn1cnc2ncn([C@@H]3O[C@H](CO[Si](C)(C)C(C)(C)C)C4(OS(=O)(=O)C=C4N)[C@H]3O[Si](C)(C)C(C)(C)C)c2c1=O | EC50 |  | trypan blue | IIIB |  | MT-4 | 0.15 µg/mL
COc1cc(Nc2nc(NS(=O)(=O)c3cc(C)c(Cl)cc3S)n[nH]2)cc(OC)c1OC | EC50 |  | cytopathic effect / XTT | RF |  | CEM | 113.8 µM
COC(=O)C(C)CNP(=O)(OC[C@@H]1CC[C@H](n2cc(C)c(=O)[nH]c2=O)O1)Oc1ccc(F)cc1 | EC50 |  | RT activity |  |  | CEM(TK-) + CEM TK- | 32.7 µM